We go through seven compounds from PubChem BioAssay AID565 (University of Pittsburgh Molecular Library Screening Center, 2006).

The list shows a part of the results, in another mix than the full data. The source made the active and inactive calls. Rule as the data show it: active = inhibition above about 50%; inactive = the rest.

As a reminder, the inhibition is the change of the read-out against control, counted positive when it falls.

The target of this assay is Gag-Pol polyprotein (Human immunodeficiency virus type 1 group M subtype B (isolate HXB2)) (UniProt P04585). In words: blockers of HIV-1 RNase H RNA/DNA cleavage – biochemical, fluorescence, primary screen (AID 565). To be noted: RT-RNase H RNA/DNA duplex cleavage, at 10 µM, hits give high values.
As for `COc1ccc(NC2CCN(CCc3ccccc3)CC2)c(OC)c1`, the inhibition is inactive: 6.09%.

With `O=C(OC1CN2CCC1CC2)C1c2ccccc2Oc2ccccc21` (configuration not stated), the inhibition was inactive: 13%.

On to `N#CC1(Nc2ccccc2)CCN(CCc2ccccc2)CC1`, for which the inhibition is inactive: -10.5%.

With `N/C(=N\O)c1c(N)no[n+]1[O-]`, the inhibition was inactive: -4.02%.

On to `CCC(CO)(C(=O)OC1CN2CCC1CC2)c1ccccc1` (configuration not stated), for which the inhibition was inactive: -10.8%.

Turning to `CCOc1ncccc1C(=O)NCC1(N2CCOCC2)CCCCC1`, the inhibition was inactive: -11.8%.

On to `Fc1ccccc1NC1CCN(Cc2ccccc2)CC1`, for which the inhibition is inactive: -2.32%.
